Pooled drug test results. Numbers come from NIAID ChemDB, via PubChem.

All rows: whole-cell or culture tests; species: HIV-1; method: p24; endpoint: EC50

An empty or dashed field is not shown. ECn: concentration that inhibits the pathogen or its effect by n%. Two numbers with a dash give a range or band. Conditions beyond the fields shown may differ between rows.

structure	strain or isolate	cells	result
CCN1c2ncc(CCOc3cccc4c3CNC4=O)cc2-c2ncc(C)n2-c2cccnc21	-	C8166	<0.01 µM
Nc1ncnc2c1ncn2[C@H]1CC[C@@H](CO)O1	A018	PBMC	4.8 µM
O=C(O)c1cn(-c2ccc(Cn3cncn3)cc2)c2c(OC(F)F)c(N3CC=C(c4ccccc4)CC3)c(F)cc2c1=O	-	OM-10.1	0.017 µM
N#Cc1cc(Cl)cc(Oc2cc(OCc3cn(-c4ccccc4)nn3)ccc2Cl)c1	-	MT-4	<20 µM
Cc1cc(C)cc(S(=O)(=O)c2c(C(N)=O)[nH]c3ccc(Cl)cc23)c1	IIIB	C8166	<0.006 µM
Nc1[nH]c(=S)nc2c1C(c1ccc([N+](=O)[O-])cc1)c1c([nH]c(=S)[nH]c1=O)O2	-	MT-4	<5 µg/mL
N#Cc1cc(Cl)cc(Oc2cc(OCc3nc4ccccc4s3)ccc2Cl)c1	-	MT-4	<20 µM
Nc1nccc2c1ncn2[C@H]1CC[C@@H](CO)C1	A018	PBMC	2 µM
CCCCNc1cc(OC)c2cc(C(=O)OC)[nH]c2c1	-	-	3.46 µg/mL
CN1CCN(c2nc(-c3ccccc3)nc3ccccc23)CC1	LAV	PBMC	28.5 µM
CC(=O)N1CCc2cc(S(=O)(=O)N(CC3CCCC3)C[C@@H](O)[C@H](Cc3ccccc3)NC(=O)O[C@H]3CCOC3)ccc21	IIIB	CEM	<1 µM
COC(=O)Cc1cnc2cc(N)cc(OC)c2c1	-	-	0.71 µg/mL
COc1ccccc1N1CCN(c2c(F)cc3c(=O)c(C(=O)O)cn(C)c3c2CN(C)C)CC1	-	OM-10.1	0.2 µM
NC(=O)NO	-	U-937	<200 µM
CCN1c2ncc(CCOc3ccc(C(=O)O)cc3C)cc2-c2nccn2-c2cccnc21	-	C8166	<0.01 µM
N#Cc1cc(Cl)cc(Oc2cc(Cl)cc(OCC(=O)Nc3ccc4nc[nH]c4c3)c2)c1	-	MT-4	<20 µM
Cc1cc(C)cc(S(=O)(=O)c2c(C(=O)NC(C)C(N)=O)[nH]c3ccc(Cl)cc23)c1	EFV-resistant (RT K103R V179D P225H)	C8166	<0.04 µM
COc1cc(N=Nc2cc(S(=O)(=O)O)cc3cc(S(=O)(=O)O)cc(O)c23)c(C)cc1Nc1nc(Nc2ccncc2)nc(Nc2ccncc2)n1	IIIB	MT-2	15.51 µM
CCN1c2ncc(CCOc3cccc4c3CS(=O)(=O)N4CC(=O)O)cc2-c2nccn2-c2c(C)ccnc21	-	C8166	>0.05 µM
Cc1cc(OCCN(C)C)ccc1NC(=O)COc1ccc(Cl)c(Oc2cc(Cl)cc(C#N)c2)c1	-	MT-4	<20 µM
COC(=O)c1cc2c(OC)cc(N)cc2s1	-	-	3.26 µg/mL
CN(C)CCNc1cc(-c2cccs2)nc2ccccc12	LAV	PBMC	0.6 µM
Nc1nccc2c1ncn2[C@@H]1O[C@H](CO)[C@@H](O)[C@H]1O	A012	PBMC	0.15 µM
O=C(OCCOCCOCCNC(=O)c1cc(C(=O)c2ccc3ccccc3c2)n2ccc(C(=O)c3ccccc3)cc12)c1ccccc1	-	H9	56.5 µM
Cc1cn([C@H]2C[C@H](N=[N+]=[N-])[C@@H](CO)O2)c(=O)[nH]c1=O	A17	C8166	0.00411 µg/mL
CNc1ccc2c(COc3ccc(Cl)c(Oc4cc(Cl)cc(C#N)c4)c3)[nH]nc2n1	-	MT-4	<20 µM
N[C@H]1CONC1=O	N1T	CEM	~2.5 µg/mL
COC(=O)N[C@@H](Cc1ccccc1)[C@H](O)CN(CC(C)C)S(=O)(=O)c1ccc(F)cc1	IIIB	CEM	<10 µM
c1ccc(CNCCc2ccc(CN3CCNCCCCCCCNCC3)cc2)nc1	NL4-3	MT-4	0.032 µg/mL
N#Cc1cc(Cl)cc(Oc2cc(F)c(Cl)c(OCc3nnc4n(O)cccc3-4)c2)c1	-	MT-4	<20 µM
Cc1cc(C)cc(S(=O)(=O)c2c(C(=O)NC(C)C(=O)NN)[nH]c3ccc(Cl)cc23)c1	IIIB	C8166	<0.07 µM
Nc1ccn([C@H]2CO[C@@H](CO)S2)c(=O)n1	NL4-3	PBMC	7.2 µM
Cc1cc(C)cc(S(=O)(=O)c2c(C(=O)NCC(N)=O)[nH]c3ccc(Cl)cc23)c1	IIIB	C8166	<0.01 µM
O=C(N[C@@H](Cc1ccccc1)[C@H](O)CN(CC1CCCC1)S(=O)(=O)c1ccc(Cl)c(Cl)c1)O[C@@H]1CCOC1	IIIB	CEM	<1 µM
Cc1cc(S(=O)(=O)Nc2nnc3c4ccccc4cnn23)c(S)cc1Cl	Diphenyl sulfone-resistant	CEM	10.6 µM
CN1CCN(c2cc(-c3ccccc3)nc3ccccc23)CC1	LAV	PBMC	34.8 µM
COc1c(C)c2c(c(O)c1C/C=C(\C)CCC(=O)O)C(=O)OC2	LAV-1	PBMC	0.052 µM
NC(=O)c1cc2c([nH]c3ccccc32)c(-c2ccc(CO)o2)n1	IIIB	C8166	1.45 µM
NC(=O)C[C@H](NC(=O)c1ccc2ccccc2n1)C(=O)N[C@@H](Cc1ccccc1)[C@H](O)CN(Cc1ccccc1)S(=O)(=O)c1cccc2nonc12	IIIB	CEM	<1 µM
COc1cc(N=Nc2cc(S(=O)(=O)O)cc3cc(S(=O)(=O)O)cc(O)c23)c(C)cc1Nc1nc(Nc2ncncc2OC)nc(Nc2ncncc2OC)n1	IIIB	MT-2	>80 µM
CC(=O)Nc1nc(C)c(S(=O)(=O)N(Cc2ccccc2)C[C@@H](O)[C@H](Cc2ccccc2)NC(=O)[C@H](CC(N)=O)NC(=O)c2ccc3ccccc3n2)s1	IIIB	CEM	<1 µM
O=P(O)(O)OP(=O)(O)OP(=O)(O)OP(=O)(O)O	IIIB	H9	>100 µg/mL
CC(C)CN(C[C@@H](O)[C@H](Cc1ccccc1)NC(=O)OC[C@@H]1COC(=O)N1)S(=O)(=O)c1ccc(F)cc1	IIIB	CEM	<1 µM
CN(C)CCNc1cc(-c2ccc3ccccc3c2)nc2ccccc12	LAV	PBMC	2.5 µM
C=C(C)COC(=O)N[C@@H](Cc1ccccc1)[C@H](O)CN(CC(C)C)S(=O)(=O)c1ccc(F)cc1	IIIB	CEM	<10 µM
CCCCCCCCNCC(O)CCCCCCCCCn1c(=O)c2c(ncn2C)n(C)c1=O	LAV	U1(HIV-1 (LAV)) + U1	<5 µM
C=CCOC(=O)N[C@@H](Cc1ccccc1)[C@H](O)CN(CC(C)C)S(=O)(=O)c1ccc(F)c(NC(C)=O)c1	IIIB	CEM	<10 µM
CN(C)CCNc1nc(-c2ccccc2)nc2ccccc12	LAV	PBMC	12.5 µM
CC(C)CN(C[C@@H](O)[C@H](Cc1cccc(F)c1)NC(=O)O[C@H]1C2COC3OCC1C3C2)S(=O)(=O)c1ccc2nc(NC3CC3)sc2c1	NL4-3	MT-4	0.000061 µM
CCOC(=O)c1cc(C(=O)c2ccc3ccccc3c2)n2ccc(C(=O)c3ccccc3)cc12	-	H9	36.1 µM
CC1(C)CC(NC(=O)C(=O)Nc2ccc(Br)cc2)CC(C)(C)N1	MN	MT-2	15.93 µM
Nc1nccc2c1ncn2[C@@H]1C[C@H](O)[C@@H](O)[C@H]1O	A012	PBMC	3.48 µM
CCOC(=O)c1cc(C(=O)c2ccc3ccccc3c2)n2ccc(C(=O)c3ccncc3)cc12	-	H9	11 µM
C/C=C/CSc1cc(NC(=S)c2ccsc2C)ccc1Cl	BaL	MAC	0.2 µM
O=C(/C=C/C1=CC2C=Cc3cc(O)c(O)cc3OC2C(O)=C1)OC(Cc1ccc(O)c(O)c1)C(=O)O	IIIB	MT-4	0.649–4.28 µg/mL
COc1cc(O)c(CC=C(C)C)c(O)c1C(=O)/C=C/c1ccc(O)cc1	IIIB	PBMC	50.55 µM
COC(=O)CNC(=O)CNC(=O)CNC(=O)CNC(=O)c1cc(C(=O)c2ccc3ccccc3c2)n2ccc(C(=O)c3ccccc3)cc12	-	H9	40.7 µM
COC(=O)c1ccc2cc(OC)cc(N)c2n1	-	-	0.21 µg/mL
CCOC(=O)c1nnsc1Nc1ccccc1Nc1snnc1C(=O)OCC	NL4.3/AMD3100R	C8166	8 µM

Again, the opening 6 rows:

structure	strain or isolate	cells	result
CCN1c2ncc(CCOc3cccc4c3CNC4=O)cc2-c2ncc(C)n2-c2cccnc21	-	C8166	<0.01 µM
Nc1ncnc2c1ncn2[C@H]1CC[C@@H](CO)O1	A018	PBMC	4.8 µM
O=C(O)c1cn(-c2ccc(Cn3cncn3)cc2)c2c(OC(F)F)c(N3CC=C(c4ccccc4)CC3)c(F)cc2c1=O	-	OM-10.1	0.017 µM
N#Cc1cc(Cl)cc(Oc2cc(OCc3cn(-c4ccccc4)nn3)ccc2Cl)c1	-	MT-4	<20 µM
Cc1cc(C)cc(S(=O)(=O)c2c(C(N)=O)[nH]c3ccc(Cl)cc23)c1	IIIB	C8166	<0.006 µM
Nc1[nH]c(=S)nc2c1C(c1ccc([N+](=O)[O-])cc1)c1c([nH]c(=S)[nH]c1=O)O2	-	MT-4	<5 µg/mL